A mixed list of measured activities; the numbers were collected in NIAID ChemDB.

Common to all: whole-cell or culture tests; species: Cytomegalovirus; cell line: MRC-5; endpoint: EC50

Lines come from different laboratories, so protocols vary. Blank or dashed fields: not listed here. ECn: concentration that inhibits the pathogen or its effect by n%.

smiles | strain | method | result
Nc1nc2c(ncn2OCCOCP(=O)(O)O)c(=O)[nH]1 | AD169 | plaque count | 0.07 µg/mL
Nc1nc2c(ncn2COC(CO)CO)c(=O)[nH]1 | 209 |  | 9.9 µM
CCOC(=O)CC1(O)[C@@H](CO[Si](C)(C)C(C)(C)C)O[C@@H](n2ccc(=O)[nH]c2=O)[C@@H]1O[Si](C)(C)C(C)(C)C |  | plaque count | >2 µM
CC(=O)Nc1cc(S(=O)(=O)O)cc2cc(S(=O)(=O)O)cc(O)c12 | AD169 | plaque count | >100 µM
CCCCCCCCCCc1nccn(COCCO)c1=O |  | cytopathic effect | >100 µM
Nc1nc2c(ncn2OCC2COP(=O)(O)CO2)c(=O)[nH]1 | AD169 | plaque count | 14 µg/mL
COC(=O)/C=C1/[C@@H](O[Si](C)(C)C(C)(C)C)[C@H](n2cc(C)c(=O)[nH]c2=O)O[C@@H]1CO[Si](C)(C)C(C)(C)C |  | plaque count | 1.5 µM
O=S(=O)(O)c1cc(O)c2c(NS(=O)(=O)c3ccc(-c4ccc(S(=O)(=O)Nc5cc(S(=O)(=O)O)cc6cc(S(=O)(=O)O)cc(O)c56)cc4)cc3)cc(S(=O)(=O)O)cc2c1 | AD169 | plaque count | 33 µM
CCCCCCCCCCc1nccnc1OCCCCO |  | cytopathic effect | >10 µM
Cc1cn([C@@H]2O[C@H](CO[Si](C)(C)C(C)(C)C)C3(O[C@H]3C(=O)NN)[C@H]2O[Si](C)(C)C(C)(C)C)c(=O)[nH]c1=O |  | plaque count | >5 µM
Nc1ncnc2c1ncn2OCCOCP(=O)(O)O | AD169 | plaque count | >350 µg/mL
O=C(CCCCCCC(=O)Nc1cc(S(=O)(=O)O)cc2cc(S(=O)(=O)O)cc(O)c12)Nc1cc(S(=O)(=O)O)cc2cc(S(=O)(=O)O)cc(O)c12 | Isolate T-156 | plaque count | 16 µM
Nc1ncnc2c1ncn2OCC(CO)OCP(=O)(O)O | AD169 | plaque count | >310 µg/mL
Cc1cn([C@@H]2O[C@H](CO[Si](C)(C)C(C)(C)C)C3(O[C@H]3C(=O)NO)[C@H]2O[Si](C)(C)C(C)(C)C)c(=O)[nH]c1=O |  | plaque count | 4 µM

For reference, 2 entries again:

CCCCCCCCCCc1nccn(COCCO)c1=O ; method: cytopathic effect ; result: >100 µM
O=S(=O)(O)c1cc(O)c2c(NS(=O)(=O)c3ccc(-c4ccc(S(=O)(=O)Nc5cc(S(=O)(=O)O)cc6cc(S(=O)(=O)O)cc(O)c56)cc4)cc3)cc(S(=O)(=O)O)cc2c1 ; strain: AD169 ; method: plaque count ; result: 33 µM